Legend:
ZIKV = format: cell-based, Zika virus; settings: compounds; SI = ratio CC50/EC50, Vero
Description: (§1) Plant extracts were screened for their cytotoxic and anti-ZIKV and anti-DENV activities in Vero cells and BHK-21, respectively, in 96-well culture plates by observing the reduction of the viral cytopathic effect (CPE) and then measured by the MTT method. The crude extracts were dissolved in 4% DMSO aqueous solution, and their concentration was normalized to 50 µg/ml with Eagle's minimum essential medium (MEM) supplemented with 2% fetal bovine serum (FBS). Briefly, 8 × 10^3 of BHK-21 cells or 1 × 10^4 of Vero cells per well were seeded in a 96-well plate and incubated for 24 h at 37 °C and 5% CO2 atmosphere. Extract solution and virus suspension, at a multiplicity of infection (m.o.i.) of 2, for both viruses, were simultaneously added on 70% confluent monolayers. Each extract was tested in duplicate. Controls of untreated infected and untreated uninfected cells incubated with or without DMSO were included. Interferon-α 2B, in concentrations of 500 and 1000 IU/mL, was used as a positive antiviral control in all antiviral assays. […] Briefly, the supernatants were removed, and 30 µl of a stock solution of MTT (2 mg/ml) dissolved in phosphate-buffered saline were added to each well. After 90 min of incubation at 37 °C, 130 µl of DMSO were added to each well, and plates were homogenized for 5 min at 500 rpm. The absorbance values of each reaction were measured in an ELISA reader (Spectra Max, Molecular Devices, USA) at λ540 nm. […] Cytotoxicity (CC50) and anti-ZIKV/DENV-2 (CE50) experiments were performed in duplicate and repeated at least three times.
(§2) Viral CPE and cell viability were observed by optic microscopy and measured by the MTT method as previously described. […] The experiments were performed in duplicate and repeated at least three times.
(§3) Bioassay data were normalized to untreated uninfected cells and the EC50 and CC50 values were obtained using GraphPad Prism 5 based on nonlinear logistic regression of the experimental dose–response curves. […] The CC50 and EC50 values ratio was used as a selectivity index (SI).

DENV-2 = assay: Anti-DENV-2 activity by viral CPE reduction and MTT method in BHK-21 cells; format: cell-based, Dengue virus serotype 2; settings: compounds; SI = ratio CC50/EC50, BHK-21
Description: as §1, §2, §3

Compound	ZIKV SI (ZIKV)	DENV-2 SI (DENV-2)
CC(=O)O[C@H]1[C@H]2c3cc4c(cc3CN3CCC(=C[C@@H]1O)[C@H]23)OCO4 [1-acetyl-lycorine]	1.0	–
O[C@H]1[C@H]2c3cc4c(cc3CN3CCC(=C[C@@H]1O)[C@H]23)OCO4 [Lycorine]	3.8	8.6
CO[C@@H]1C=C[C@@]23c4cc5c(cc4C(O)O[C@H]2CN(C)[C@H]3C1)OCO5 (stereo partly shown) [Pretazettine]	3.8	6.8
O=C1NC2C(=C[C@H](O)[C@@H](O)[C@H]2OC2OCC(O)C(O)C2O)c2cc3c(c(O)c21)OCO3 (stereo partly drawn) [Narciclasine-4-O-β-D-xylopyranoside, narciclasine-4-O-β-D-xylopyranoside]	6.5	4.9
